Measured values from several laboratories, pooled; numbers as filed in NIAID ChemDB.

Shared fields: tests in culture; species: Mycobacterium tuberculosis

A number after MIC or MFC names an inhibition level or a share of isolates. ECn is the concentration giving n% inhibition of infection, replication or growth. Rows are shuffled and stem from different studies. a–b is a range or a potency band. Percent inhibition refers to the dose given; in toxicity tests it is the harm to the cells. Blank or dashed fields: not listed here. MIC bound comes from a single tested concentration.

SMILES,cells,read by,mutations,strain,measure,tested at,value
Nc1nc(F)c(F)c2c1NCN2[C@@H]1O[C@H](CO)[C@@H](O)[C@H]1O,-,-,-,SRICK1,MIC,-,>100 µg/mL
NC(=O)c1cnccn1,-,-,-,H37Rv,MIC,-,25 µg/mL
Cc1cc(C)c2c(-c3ccccc3)cc(=O)oc2c1,-,turbidity,-,H37Rv,EC90,-,>250 µM
O=C1c2ccccc2C(=O)c2[nH]ncc21,-,resazurin,-,H37Rv,MIC bound,-,>6.25 µg/mL
CCOC(=O)CC(NC(C)CCCC(C)C)[C@H]1O[C@@H]2OC(C)(C)O[C@@H]2[C@H]1OCc1ccccc1,-,-,-,H37Rv,MIC,-,25 µg/mL
CO[C@H]1/C=C/O[C@@]2(C)Oc3c(C)c(O)c4c(O)c(c5c(c4c3C2=O)NC2(C[C@@H](c3ccc(F)cc3)N[C@@H](c3ccc(F)cc3)C2)N=5)=NC(=O)/C(C)=C\C=C\[C@H](C)[C@H](O)[C@@H](C)[C@H](O)[C@H](C)[C@H](OC(C)=O)[C@@H]1C,-,-,-,ATCC 35822 (isoniazid-resistant),MIC,-,0.02 µg/mL
Cc1cc2c(cc1C)[n+](=O)c(C(=O)CC(=O)C(=O)Nc1ccccc1C)c(C)n2[O-],-,resazurin,-,H37Rv,MIC bound,-,>6.25 µg/mL
CCCCCCCS/C(N)=N/N=C/c1ccc2ccccc2n1,-,-,-,CNCTC TBC1/47,MIC,-,8 µM
COc1ccc(-c2cn(C)cc2[N+](=O)[O-])c(Cl)c1,-,-,-,CIP103471,MIC,-,>250 µg/mL
Cc1coc(NS(=O)(=O)c2ccc(N=Nc3c(N)[nH]c(=S)[nH]c3=O)cc2)c1C,-,BACTEC,-,H37Rv,MIC bound,-,>12.5 µg/mL
CCN(CC)CCCCOc1ccc(/C=C2\CC/C(=C\c3ccc(OCCCCN(CC)CC)cc3)C2=O)cc1,-,visual reading,-,H37Rv,MIC99,-,6.25 µM
CCOC(=O)C(CC(C)C)NC(=O)c1cc(SC#N)c(C)c2c1Nc1c(c(C)c3oc(=O)c(C)nc3c1C(=O)NC(CC(C)C)C(=O)OCC)O2,-,BACTEC,-,H37Rv,inhibition,12.5 µg/mL,-30%
CN[C@@H]1[C@H](O[C@H]2[C@H](O[C@H]3[C@H](O)[C@@H](O)[C@H](N=C(N)N)[C@@H](O)[C@@H]3N=C(N)N)O[C@@H](C)[C@]2(O)C=O)O[C@@H](CO)[C@H](O)[C@H]1O,-,-,-,2218,MIC,-,>10 µg/mL
COc1cc(/C=C2\CC/C(=C\c3ccc(OCCCN4CCCC4)c(OC)c3)C2=O)ccc1OCCCN1CCCC1,-,visual reading,-,H37Rv,MIC99,-,25 µM
NNC(=O)c1ncn([C@@H]2O[C@H](CO)[C@@H](O)[C@H]2O)c1C(=O)NN,-,BACTEC,-,H37Rv,inhibition,12.5 µg/mL,-11%
CC(C)CCOc1ccc(NC(=S)Nc2ccc(OCCC(C)C)cc2)cc1,-,-,-,H37Rv,MIC,-,2 µg/mL
COc1nc(C)nc(NC(=O)NS(=O)(=O)c2ccccc2Cl)n1,-,-,-,ATCC35801,MIC,-,125 µM
CCCCCCn1c(C)c(CN2CCN(C)CC2)c(CN2CCN(C)CC2)c1-c1ccc(Cl)cc1,-,-,-,H37Rv,EC50,-,<12.5 µg/mL
Cc1cc2oc(=O)cc(-c3ccccc3)c2c(C)c1-c1ccc(CN2CCOCC2)cc1,-,turbidity,-,H37Rv,EC99,-,0.42 µM
CCOC(=O)Nc1nn(-c2ccc3ccccc3n2)c(=O)[nH]1,-,BACTEC,-,H37Rv,MIC bound,-,>12.5 µg/mL
CN(C)CCCN1c2ccccc2Sc2ccc(Cl)cc21,-,-,-,22 isolates,MIC,-,2 µg/mL
CCOC(=O)c1cn(S(=O)(=O)c2ccc([N+](=O)[O-])cc2)cc1-c1ccncc1,-,-,-,CIP103471,MIC,-,>250 µg/mL
Nc1ncc(Cl)c2c1ncn2[C@@H]1O[C@H](CO)[C@@H](O)[C@H]1O,-,-,-,H37Ra,MIC,-,>100 µg/mL
O=C1C=C(Nc2cnccn2)c2ccccc2C1=O,-,resazurin,-,H37Rv,MIC,-,1.56 µg/mL
CCCCCCn1c(-c2ccc(Cl)cc2)cc(CN2CCN(C)CC2)c1C,-,-,-,H37Rv,MIC,-,<12.5 µg/mL
CO[C@H]1/C=C/O[C@@]2(C)Oc3c(C)c(O)c4c(O)c(c5c(c4c3C2=O)NC2(CCNCC2)N=5)=NC(=O)/C(C)=C\C=C\[C@H](C)[C@H](O)[C@@H](C)[C@@H](O)[C@@H](C)[C@H](OC(C)=O)[C@@H]1C,-,-,-,ATCC 35838 (rifampicin- rifabutin-resistant),MIC,-,0.5 µg/mL
CCOC(=O)CC(N)[C@H]1O[C@@H]2OC(C)(C)O[C@@H]2[C@H]1OCc1ccccc1,-,-,-,H37Ra,MIC,-,>25 µg/mL
CCOc1cc(/C=C2\CC/C(=C\c3ccc(OCCCN4CCC(C)CC4)c(OCC)c3)C2=O)ccc1OCCCN1CCC(C)CC1,-,visual reading,-,H37Rv,MIC99,-,6.25 µM
CN1CSC(=S)N(c2ccc(Cl)cc2)C1,-,BACTEC,-,H37Rv,inhibition,12.5 µg/mL,25%
CC1(C)O[C@H]2O[C@H](C(N)CC(=O)O)[C@H](OCc3ccccc3)[C@H]2O1,-,-,-,H37Ra,MIC,-,>100 µg/mL
NC(=O)c1ccc(CN(C2CC2)S(=O)(=O)c2ccccc2F)cc1,-,resazurin / fluorescence,Isoniazid-resistant,Clinical isolate,MIC,-,5 µM
Cc1c(CN2CCN(C)CC2)cc(-c2ccc(Cl)cc2)n1-c1ccc(Cl)cc1,-,-,-,103471,MIC,-,0.7 µg/mL
CCCCNC(CC(=O)OCC)[C@H]1O[C@@H]2OC(C)(C)O[C@@H]2[C@H]1OCc1ccccc1,-,-,-,H37Rv,MIC,-,50 µg/mL
CN1CCC(CN2c3ccccc3Sc3ccccc32)C1,-,-,-,-,MIC,-,5–15 µg/mL
COc1ccc(/C(N=Nc2ccccc2)=N/N=C(N)N)cc1,-,BACTEC,-,H37Rv,inhibition,12.5 µg/mL,28%
CCCCCCCCCCCCCCCCN[C@@H](CC(=O)OCC)[C@H]1O[C@@H]2OC(C)(C)O[C@@H]2[C@H]1OC,-,-,-,H37Ra,MIC,-,3.12 µg/mL
OC(c1ccccc1)c1cn(Cc2ccc(Cl)cc2Cl)cc1-c1ccccc1,-,-,-,CIP103471,MIC,-,250 µg/mL
CC1(C)S[C@@H]2[C@H](NC(=O)[C@H](C(=O)[O-])c3ccsc3)C(=O)N2[C@H]1C(=O)[O-].[Na+].[Na+],-,-,-,28 strains,MIC50,-,>64 µg/mL
CN1CCN(CCCCOc2ccc(/C=C3\CC/C(=C\c4ccc(OCCCCN5CCN(C)CC5)cc4)C3=O)cc2)CC1,-,visual reading,-,H37Rv,MIC99,-,12.5–25 µM
COc1ccc2c(c1)N(C[C@H](C)CN(C)C)c1ccccc1S2,-,-,-,-,MIC,-,10 µg/mL
CCCCCCS/C(N)=N/N=C/c1ccc2ccccc2n1,-,-,-,CNCTC TBC1/47,MIC,-,8 µM
O=C1O[C@H](CO)[C@@H](O)[C@H](O)[C@H]1O,-,BACTEC,-,H37Rv,MIC bound,-,>12.5 µg/mL
Cc1cc2c(ncn2[C@@H]2O[C@H](CO)[C@@H](O)[C@H]2O)c(C)n1,-,-,-,SRICK1,MIC,-,>100 µg/mL
CCCCCCn1c(-c2ccc(Cl)cc2)cc(CN2CCOCC2)c1C,-,-,-,103471,MIC,-,8 µg/mL
CC(C)(C)c1cc(C(C)(C)C)c2nc(C(=O)NC(Cc3ccc(O)cc3)C(=O)O)oc2c1,-,-,-,My 331/88,MIC,-,500 µM
COc1ccc([C@@H]2CC3(C[C@H](c4ccc(OC)cc4)N2)N=c2c(c4c5c6c(C)c(O)c4c(O)c2=NC(=O)/C(C)=C\C=C\[C@H](C)[C@H](O)[C@@H](C)[C@H](O)[C@H](C)[C@H](OC(C)=O)[C@H](C)[C@@H](OC)/C=C/O[C@@](C)(O6)C5=O)N3)cc1,-,-,-,ATCC 35820 (streptomycin-resistant),MIC,-,0.02 µg/mL
NNC(=O)c1c[nH]cc1-c1ccncc1,-,-,-,CIP103471,MIC,-,>250 µg/mL
CCCCCCCCCCCCNC(CC(=O)O)[C@H]1O[C@@H]2OC(C)(C)O[C@@H]2[C@H]1OC,-,-,-,H37Rv,MIC,-,50 µg/mL
O=C1/C(=C/c2ccc(OCCCCN3CCCCCC3)cc2)CC/C1=C\c1ccc(OCCCCN2CCCCCC2)cc1,-,visual reading,-,H37Rv,MIC99,-,6.25–12.5 µM
COC(=O)Nc1cnc(C(=O)O)c(C)c1-c1ccc(OC)c(OC)c1OCc1ccccc1,-,BACTEC,-,H37Rv,MIC bound,-,>12.5 µg/mL
CC(C)(C)c1cc(C(C)(C)C)c2oc(C(N)=O)nc2c1,-,-,-,My 331/88,MIC,-,125 µM
COc1cc(/C=C2\CC/C(=C\c3ccc(OCCCN4CCCCCC4)c(OC)c3)C2=O)ccc1OCCCN1CCCCCC1,-,visual reading,-,H37Rv,MIC99,-,12.5 µM
Cc1c(CN2CCOCC2)c(CN2CCOCC2)c(-c2ccc(Cl)cc2)n1C1CCCCC1,-,-,-,103471,MIC,-,4 µg/mL
CCCCS/C(N)=N/N=C/c1ccc2ccccc2n1,-,-,-,CNCTC TBC1/47,MIC,-,16 µM
Cc1c(CN2CCOCC2)cc(-c2ccc(Cl)cc2)n1C1CCCCC1,-,-,-,103471,MIC,-,8 µg/mL
CN1CCCCC1CCN1c2ccccc2Sc2ccc(S(C)=O)cc21,-,-,-,21 isolates (multidrug resistance),MIC,-,2 µg/mL
CCC1=C(C)C2=NC1=CC1=NC(=C(CC)/C1=C/O)C=C1N=C3C(=C1C)C(=O)C(C(=O)OC)C3=C1NC(=C2)C(C)C1CCC(=O)OC,-,BACTEC,-,H37Rv,inhibition,12.5 µg/mL,18%
Cc1cc2oc(=O)cc(-c3cccc(N)c3)c2c(C)c1-c1ccc(CN2CCOCC2)cc1,-,turbidity,-,H37Rv,EC99,-,0.24 µM
C=C1C(=O)C23OC2C1CCC(=O)C1(C)CCC(OC(C)=O)C(C)(C)C1CC3=O,VERO,BACTEC,-,H37Rv,MIC,-,>12.5 µg/mL
CCCCCCn1c(C)ccc1-c1ccc(Cl)cc1,-,-,-,103471,MIC,-,4 µg/mL
NNC(=O)CNC(=O)C(CSC(c1ccccc1)(c1ccccc1)c1ccccc1)NC(=O)OCc1ccccc1,-,BACTEC,-,H37Rv,MIC bound,-,>12.5 µg/mL
CCc1nc2ccc(Cl)cc2c2nc3ccccc3n12,-,resazurin,-,H37Rv,MIC99,-,6.25 µg/mL
COc1ncccc1Nc1cc2nc3ccccc3n(-c3ccc(OC(F)(F)F)cc3)c-2cc1=NC1CCC(OC)CC1,-,fluorescence,-,H37Rv,MIC90,-,0.063 µg/mL
CCS/C(N)=N/N=C/c1nc2ccccc2o1,-,-,-,CNCTC TBC1/47,MIC,-,32 µM
CCc1cc(C(N)=S)ccn1,-,-,-,CIPT 14 001 0060 (Canetti),MIC,-,0.5 µg/mL
COc1ccc(C(=O)N2N=C(C)C(C)(C)C2(C)O)cc1,-,BACTEC,-,H37Rv,MIC bound,-,>12.5 µg/mL
CCCC(C)S/C(N)=N/N=C/c1ccc2ccccc2n1,-,-,-,CNCTC TBC1/47,MIC,-,16 µM
CC1CC(=O)c2c(ccc3c2C(=O)c2cccc(O)c2C3=O)C1,-,GFP,-,H37Ra,EC50,-,40.8 µM
CC(C)N(O)C(=O)C(=O)O,-,-,-,ATCC35801,MIC,-,1000 µM
CC1=CC(=O)Nc2ccccc2S1,-,BACTEC,-,H37Rv,MIC bound,-,>12.5 µg/mL
CO[C@H]1/C=C/O[C@@]2(C)Oc3c(C)c(O)c4c(O)c(c(/C=N/N5CCN(C)CC5)c(O)c4c3C2=O)NC(=O)/C(C)=C\C=C\[C@H](C)[C@H](O)[C@@H](C)[C@@H](O)[C@@H](C)[C@H](OC(C)=O)[C@@H]1C,-,resazurin,-,SIT37,MIC,-,3 µg/mL
NNC(=O)c1ccncc1,-,-,-,P4145,MIC,-,2.5 µM
Cc1noc(NS(=O)(=O)c2ccc(N=Nc3ccc(N)nc3N)cc2)c1C,-,BACTEC,-,H37Rv,inhibition,12.5 µg/mL,17%
Cc1[nH]c(-c2ccc(Cl)cc2)cc1CN1CCN(C)CC1,-,-,-,103471,MIC,-,8 µg/mL
Nc1ncnc2c1ncn2-c1ccc([N+](=O)[O-])cn1,-,resazurin,-,H37Rv,inhibition,6.25 µg/mL,6%
O=c1cc(-c2ccccc2)c2cc(-c3ccncc3)ccc2o1,-,turbidity,-,H37Rv,EC90,-,>250 µM
COC(=O)C(=O)C(C)C(=O)C(C)c1nc(NC(=O)Nc2ccc(Cl)cc2)n[nH]1,-,resazurin,-,H37Rv,inhibition,6.25 µg/mL,41%
NNC(=O)c1cccc(Br)c1,-,-,-,ATCC35801,MIC50,-,29.5 µg/mL
CCOc1cc(=O)cc2n(-c3cc(OCC)c(OC(C)=O)c(OCC)c3)c3ccccc3nc1-2,-,BACTEC,-,H37Rv,inhibition,12.5 µg/mL,21%
CCS/C(N)=N/N=C/c1ccc2ccccc2n1,-,-,-,CNCTC TBC1/47,MIC,-,32 µM

A second listing of 5 rows from above:

SMILES	cells	read by	mutations	strain	measure	tested at	value
CCCC(C)S/C(N)=N/N=C/c1ccc2ccccc2n1	-	-	-	CNCTC TBC1/47	MIC	-	16 µM
Cc1c(CN2CCOCC2)c(CN2CCOCC2)c(-c2ccc(Cl)cc2)n1C1CCCCC1	-	-	-	103471	MIC	-	4 µg/mL
O=c1cc(-c2ccccc2)c2cc(-c3ccncc3)ccc2o1	-	turbidity	-	H37Rv	EC90	-	>250 µM
CCOc1cc(/C=C2\CC/C(=C\c3ccc(OCCCN4CCC(C)CC4)c(OCC)c3)C2=O)ccc1OCCCN1CCC(C)CC1	-	visual reading	-	H37Rv	MIC99	-	6.25 µM
COc1ncccc1Nc1cc2nc3ccccc3n(-c3ccc(OC(F)(F)F)cc3)c-2cc1=NC1CCC(OC)CC1	-	fluorescence	-	H37Rv	MIC90	-	0.063 µg/mL